These are literature values, as cited in publication PMC9435674, “Delineating the activity of the potent nicotinic acetylcholine receptor agonists (+)-anatoxin-a and (−)-hosieine-A” (2022).

The term IC50 denotes the midpoint of a concentration-inhibition curve. Usually Ki stands for a measure of affinity in units of concentration, obtained from inhibition or displacement.

Series [1] has as its system Torpedo electric organ. The note with it: patch-clamp electrophysiology; ref Swanson et al., 1986; cited from earlier work. On the technique in general: In patch-clamp work, channel activity is measured electrically.
Series [2] has as its system muscle and neuronal nAChRs. The note with it: agonist of muscle and neuronal nAChRs; ref Spivak et al., 1980; Koskinen & Rapoport, 1985; Rodgers et al., 2018; cited from earlier work.
The test system of series [3] is human α4β2 and rat α7 subtypes. The note with it: range over human α4β2 and rat α7 subtypes; ref Gohlke et al., 2002; Mazurov et al., 2012; cited from earlier work.
Series [4] has as its system Torpedo electric organ. The note with it: radioligand competition assay, ref Swanson et al., 1986; cited from earlier work. In general terms: Displacement assays read how much labelled ligand stays bound in the presence of the test substance.

Each structure is given as a SMILES string. Where two headings read alike, the source gives them in different places.

On to `CC(=O)C1=CCCC2CCC1N2` (single isomer, unassigned), for which the IC50 in the series on Torpedo electric organ [1] was 32 nM; in the series on Torpedo electric organ [4], 85 nM. In addition, the “potency of the (+)-enantiomer relative to the (−)-enantiomer” value in series [2] is listed as “around 150 times”. Moreover, the Ki in series [3] is 1 to 90 nM.
